Source: PMC5720831
Protein sequences can lack the tags named with them.

Biological target: T1, DciA(Mtb) W113A W133A (UniProt P9WFL1)
T1 sequence (looked up): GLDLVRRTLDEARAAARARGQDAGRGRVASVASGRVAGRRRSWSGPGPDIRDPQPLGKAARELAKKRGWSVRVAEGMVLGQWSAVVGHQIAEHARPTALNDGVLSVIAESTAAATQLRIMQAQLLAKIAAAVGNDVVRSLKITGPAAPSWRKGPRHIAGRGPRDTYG
Test: EMSA
Conditions: 50 mM Tris-HCl pH 7, 150 mM NaCl, 1 mM EDTA, 1 mM DTT, 10 ug BSA, 12 ul, 20 min at room temperature, recombinant protein, residues 21-187, label: 32P 5' end (T4 PNK), probe letters rebuilt from the primers and the genome

GCATCCGTCAGCGCTCCAAGCGCTAGCACGGCGTGTTCTTCCGACAACGTTCTTAAAAAAACTTCTCTCTCCCAGGTCACACCAGTCACAGAGATTGGCTGTGAGTGTCGCTGTGCACAAACCGCGCACAGACTCATACAGTCCCGGCGGTTCCGTTCACAACCCACGCCTCATCCCCACCGACCCAACACACACCCCACAGTCATCGCCACCGTCATCCACAACTCCGACCGACGTCGACCTGCACCAAGACCAGACTGTCCCCAAACTGCACACCCTCTAATACTGTTACCGAGATTTCTTCGTCGTTTGTTCTTGGAAAGACAGCGCTGGGGATCGTTCGCTGGATACCACCCGCATAACTGGCTCGTCGCGGTGGGTCAGAGGTCAATGATGAACTTTCAAGTTGACGTGAGAAGCTCTACGGTTGTTGTTCGACTGCTGTTGCGGCCGTCGTGGCGGGTCACGCGTCATGGGCATTCGTCGTTGGCAGTCCCCACGCTAGCGGGGCGCTAGCCACGGGATCGAACTCATCGTGAGGTGAAAGGGCGCA (double strand) [oriC(Mtb) 553 bp]
binding result: binds
